Values from PubChem BioAssay AID1224833 (University of Georgia, 2016)

- Assay: 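Host factors restraining rotavirus as candidate antiviral genes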 (primary screen)
- System: monkey MA104 kidney cells
- Reagents: siRNA pool against human genes, 50 nM
- Duration: 48 h knock-down before infection; read 24 h after infection
- Challenge: infection with rotavirus strain RV3 two days after transfection; infectious dose for this stage not given
- Read-out: 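z-score of rotavirus antigen signal per well, from a fluorescent immunoassay, relative to non-targeting control wells on the same plate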
- Scale: z-score vs non-targeting control: higher = more rotavirus replication than with non-targeting control
- Active means: In these data the active calls have z-score vs non-targeting control at about -1 or lower, or at about 1 or higher
- Calls: active = z-score beyond 1 either way; inactive = z-score within 1 of zero
Shown is a random part of about 12,000 reagents. About 5,600 of them (46%) were called active. 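Active calls cover z-scores past 1 in both directions, so they include lowered as well as raised rotavirus replication.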 A number with no mark means an inactive call.

no.	target	z-score vs non-targeting control
1	PPP1R14D	-2.03 (active)
2	AHDC1	1.77 (active)
3	PDCD1	-1.41 (active)
4	KLHL2	-1.9 (active)
5	NR5A1	-1.14 (active)
6	WDR37	-1.6 (active)
7	CREBRF	-2.47 (active)
8	SRSF8	-2.12 (active)
9	UTP14C	-0.583
10	CBR1	-1.31 (active)
11	C1orf54	0.0819
12	TRIP10	1.75 (active)
13	CD68	-1.84 (active)
14	ZNF233	-0.0995
15	OLFM2	-0.217
16	GNA12	-1.44 (active)
17	STRN3	0.254
18	FMO4	-1.97 (active)
19	RGS7	0.925
20	DSC3	-0.518
21	SPANXN1	-1.19 (active)
22	NFU1	-0.873
23	PSMD13	0.73
24	RPL7L1	-0.486
25	LPO	-1.03 (active)
26	SLC35D4	1.11 (active)
27	ENOX1	0.517
28	MRPL13	0.0473
29	LGALS12	1.2 (active)
30	ASTL	-1.42 (active)
31	TRAPPC13	-1.03 (active)
32	UBP1	0.445
33	PLEC	-0.639
34	PPP1R16A	-0.993
35	CAPZB	-0.27
36	RICTOR	1.11 (active)
37	TCF19	1.8 (active)
38	ZDHHC5	0.28
39	CNOT3	0.0561
40	FERD3L	-0.385
41	CITED2	2.48 (active)
42	HSPA9	-0.81
43	DIDO1	0.962
44	REXO4	0.587
45	ATG4B	-0.596
46	GOLGA2	-2.31 (active)
47	SCARF2	-2.11 (active)
48	EDEM3	-1.89 (active)
49	MPST	1.76 (active)
50	MRPL52	-1.74 (active)
51	REG1B	-1.1 (active)
52	PLCD1	1.35 (active)
53	FOXD3	-1.74 (active)
54	MCM6	-1.92 (active)
55	COL9A3	-0.315
56	PPP1R10	1.45 (active)
57	CRHBP	0.469
58	MISP	0.145
59	ASTN2	-0.828
60	PTBP3	-1.69 (active)
61	MAB21L1	-0.205
62	CEP89	-0.803
63	CCDC159	2.02 (active)
64	ZBTB43	-2.92 (active)
65	SDHC	-0.972
66	SLC25A22	-2.08 (active)
67	RAB35	-1.05 (active)
68	ODF2	-0.376
69	OR51M1	2.38 (active)
70	MUSTN1	-1.28 (active)
71	BIN2	-0.889
72	TIMELESS	0.933
73	TENM2	-0.651
74	DNM2	1.69 (active)
75	NUMA1	-0.864
76	GNGT2	0.864
77	RMC1	-0.0694
78	HDAC7	1.67 (active)
79	MBD3L1	-1.42 (active)
80	MYH7B	-2.09 (active)
81	KRT80	-2.38 (active)
82	FNDC7	-2.7 (active)
83	LRG1	-1.1 (active)
84	NDST2	-1.96 (active)
85	MIEN1	-0.714
86	MYL11	0.344
87	CRYGC	0.711
88	HOXB3	0.998
89	SST	-0.28
90	LYPD6	1.25 (active)
91	DOLPP1	-5.46 (active)
92	VCY1B	0.362
93	UBQLN2	-0.782
94	CCNH	-0.578
95	POLR3H	-0.733
96	TIMM44	-0.157
97	PEA15	-1.06 (active)
98	DSCAML1	0.858
99	POSTN	-2.32 (active)
100	ZNF549	-0.85
101	BTNL8	-1.71 (active)
102	SCUBE3	-1.08 (active)
103	NRSN2	1.12 (active)
104	ZCCHC3	-0.609
105	DRD1	3.43 (active)
106	RGS21	0.129
107	TUT1	-0.79
108	SLC39A5	-0.395
109	MCC	-1.13 (active)
110	RBFOX1	1.17 (active)

A few values from the entries so far:
Value for SLC25A22 under “z-score vs non-targeting control”: -2.08 (active)
Under “z-score vs non-targeting control”, TENM2 reads -0.651
CREBRF, z-score vs non-targeting control = -2.47 (active)
Under “z-score vs non-targeting control”, RGS21 has 0.129
Result for CCDC159 in “z-score vs non-targeting control”: 2.02 (active)
SDHC, z-score vs non-targeting control = -0.972
